System: MDA-MB-231
Experiment: Migration (wound healing) assay
Assay type: cell-based
Conditions: 5 μM

SMILES: O=Cc1ccc(N(CCCl)CCCl)cc1
- % migration (24 hours post treatment, control = 100, Mean ± SEM (N = 2 × 2)): 70.53 ± 1.95%
- inhibition of cell migration (MDA-MB-231, 24 hours): 29.5±1.95%

From US12428405B2, “Chalcone-based chemotherapeutic compound for triple negative breast cancer” (QATAR UNIVERSITY, priority 2019, dated 2025)
